Assay results as given in PubChem BioAssay AID1159562 (GlaxoSmithKline (GSK), 2015).
pIC50: −log10 of the molar value.

Test system: Trypanosoma brucei growth inhibition, luminescence
Assay: Trypanosoma brucei growth inhibition, luminescence (AID 1159562);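 also: parasites grew with compound for 24 h before the luminescence read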

CC(C)(C)c1ccc(NC2(C(N)=O)CCN(Cc3ccccc3)CC2)cc1
pIC50: 4.49
